Earlier results in publication PMC9694544, “Conteltinib (CT-707) in patients with advanced ALK-positive non-small cell lung cancer: a multicenter, open-label, first-in-human phase 1 study” (BMC Medicine, 2022).

Tested on: patients with ALK-positive NSCLC
Settings: cited from earlier work

CCc1cc2c(cc1N1CCC(N3CCOCC3)CC1)C(C)(C)c1[nH]c3cc(C#N)ccc3c1C2=O [alectinib]
patients with diarrhea, nausea, and vomiting: < 10%
